Anti-infective test results gathered from many reports (values: NIAID ChemDB through PubChem).

Shared fields: whole-cell or culture tests; species: HIV-1; read by: p24; measure: EC50

ECn: concentration that inhibits the pathogen or its effect by n%. Lines come from different laboratories, so protocols vary. Blank or dashed fields: not listed here.

CN1CC[C@H](c2c(O)cc(O)c3c(=O)cc(-c4ccccc4Cl)oc23)[C@H](O)C1 ; cells: PM1 ; strain or isolate: IIIB ; value: <0.012 µM
O=C(O)C1=CC(=C(c2ccc(O)c(C(=O)O)c2)c2ccc(O)c(C(=O)O)c2)C=CC1=O ; cells: JM ; strain or isolate: GBB ; value: 0.5 µg/mL
Cc1cn([C@H]2C[C@H](N=[N+]=[N-])[C@@H](COP(=O)(O)OP(=O)(O)OP(=O)(O)O)O2)c(=O)[nH]c1=O ; cells: PBMC ; strain or isolate: MDR769 Multidrug-resistant isolate ; value: 0.59 µM
C[C@H](CCC(=O)NCCS(=O)(=O)O)[C@H]1CC[C@H]2[C@@H]3CC[C@@H]4C[C@H](O)CC[C@]4(C)C3CC[C@]12C ; cells: JM ; strain or isolate: GBB ; value: 2 µg/mL
Cc1ccncc1-c1ccc(C[C@H](C[C@H](O)CN2CCN(Cc3ccc(-c4ccc(Cl)cc4)o3)C[C@H]2C(=O)NCC(F)(F)F)C(=O)N[C@H]2c3ccccc3OC[C@H]2O)o1 ; cells: MT-4 ; strain or isolate: NL4-3 ; value: <0.0156 µM
Cc1ccc(NC(=S)N[C@H](C)c2cccc3ccccc23)nc1 ; cells: PBMC ; mutations: RT-K103N Y181C ; strain or isolate: A17V(RT-K103N Y181C) ; value: 0.543 µM
CCC[C@@]1(CCc2ccccc2)CC(O)=C([C@H](CC)c2cccc(NS(=O)(=O)c3ccc(C(F)(F)F)cn3)c2)C(=O)O1 ; cells: PBMC ; strain or isolate: 472 clinical isolates AZT-resistant ; value: <0.03 µM
COC(=O)CCC/C=C(\c1cc(C)c(OC)c(C(=O)OC)c1)c1cc(Cl)c(OC)c(C(=O)OC)c1 ; cells: CEM + CEM-SS ; value: 0.02 µM
Cc1cccc(S(=O)(=O)c2c(C(=O)NNCCO)[nH]c3ccc(Cl)cc23)c1 ; cells: Macrophage + Macrophages ; strain or isolate: BAL R5 ; value: 2.1 µM
CC(C)[C@H](NC(=O)N(C)Cc1ccccn1)C(=O)N[C@@H](Cc1ccccc1)[C@H](O)[C@H](O)[C@H](Cc1ccccc1)NC(=O)[C@@H](NC(=O)N(C)Cc1ccccn1)C(C)C ; cells: MT-4 ; mutations: PR-R8K ; strain or isolate: NL4-3 ; value: 4 µM
CC1(C)CC[C@]2(C(=O)O)CC[C@]3(C)C(=CCC4[C@@]5(C)CC[C@H](OC(=O)C(C)(C)CC(=O)O)C(C)(C)C5CC[C@]43C)C2C1 ; cells: H9 ; strain or isolate: IIIB ; value: 1.5 µg/mL
CC(C)(C)OC(=O)N[C@@H](Cc1ccccc1)[C@H](O)[C@H](O)[C@H](Cc1ccccc1)NC(=O)OC(C)(C)C ; cells: MT-4 ; strain or isolate: NL4-3 ; value: 7 µM
Nc1nccc2c1ncn2[C@@H]1C[C@H](CO)[C@@H](O)[C@H]1O ; cells: PBL ; strain or isolate: A012 POST-AZT ; value: 0.365 µM
Cc1cc(C)cc(S(=O)(=O)c2c(C(=O)NNCCO)[nH]c3ccc(Cl)cc23)c1 ; cells: Macrophage + Macrophages ; strain or isolate: BAL R5 ; value: 0.02 µM
O[C@H]1[C@H](O)[C@@H](O)CN2CC[C@H](O)[C@H]12 ; cells: JM ; strain or isolate: GBB ; value: 1 µg/mL
CCO/N=C(\c1ccc(Br)cc1)C1CCN(C2(C)CCN(C(=O)c3c(C)cc[n+]([O-])c3C)CC2)CC1 ; cells: PBMC ; strain or isolate: JRCSF R5 CLADE B ; value: 0.0005 µM
CC1(C)CC[C@]2(C(=O)O)CC[C@]3(C)C(=CC[C@@H]4[C@@]5(C)CC[C@H](OC(=O)CC(C)(C)C(=O)O)C(C)(C)[C@@H]5CC[C@]43C)[C@@H]2C1 ; cells: H9 ; strain or isolate: IIIB ; value: 0.0005 µg/mL
CC(C)(C)OC(=O)N[C@@H](Cc1ccccc1)[C@H](O)CNC[C@@H](O)[C@H](Cc1ccccc1)NC(=O)C(C)(O)C(C)(C)C ; cells: PBMC ; strain or isolate: A018A ; value: 0.21 µM
O=C(NCc1ccc(F)cc1)c1nc(N2CCCCS2(=O)=O)c2cccnc2c1O ; mutations: INTG-N155S ; value: 0.072 µM
COC(=O)[C@H](C)NP(=O)(OC[C@@H]1C=C[C@H](n2cc(C)c(=O)[nH]c2=O)O1)Oc1ccc(Br)cc1 ; cells: PBMC ; mutations: RT-M41L T215Y ; strain or isolate: P798-1 NRTI resistant ; value: 0.0075 µM
CN[C@@H]1[C@H](O[C@@H]2OC[C@@H](O)[C@H](O)[C@H]2O)[C@@H](O)[C@H](O[C@H]2c3cc(C)c(C(=O)N[C@H](C)C(=O)O)c(O)c3-c3c(cc4c(c3O)C(=O)c3cc(OC)cc(O)c3C4=O)[C@@H]2O)O[C@@H]1C ; cells: PBMC ; strain or isolate: UG270 X4 CLADE D ; value: 3.1 µg/mL
Cc1cn([C@H]2C[C@H](N=[N+]=[N-])[C@@H](CO)O2)c(=O)[nH]c1=O ; cells: MT-2 ; mutations: RT-P119S L214F ; strain or isolate: RT P119S L214F ; value: 0.018 µM
COC(=O)[C@H](C)NP(=O)(OC[C@H]1O[C@@H](N2C(=O)NC(=O)C(C)(Br)C2OC)C[C@@H]1N=[N+]=[N-])Oc1ccc(Br)cc1 ; cells: PBMC ; strain or isolate: IIIB ; value: 0.005 µM
CC1(C)CC[C@]2(C(=O)O)CC[C@]3(C)C(=CCC4[C@@]5(C)CC[C@H](OC(=O)CCC(=O)O)C(C)(C)C5CC[C@]43C)C2C1 ; cells: H9 ; strain or isolate: IIIB ; value: 6.1 µg/mL
Cc1cn([C@H]2C[C@H](N=[N+]=[N-])[C@@H](CO)O2)c(=O)[nH]c1=O ; cells: PBMC ; mutations: RT-M41L T69ins L74V M184V L210W T215Y ; strain or isolate: 52534-2 NRTI resistant recombinant ; value: >1 µM
Nc1ncnc2c1ncn2CCOCP(=O)(O)O ; cells: MT-2 ; strain or isolate: HXB2D ; value: 1 µM
O=C(N[C@H]1c2ccccc2OC[C@H]1O)[C@H](Cc1cc2cnccc2s1)C[C@H](O)CN1CCN(Cc2ccc(-c3ccc(Cl)cc3)s2)C[C@H]1C(=O)NCC(F)(F)F ; cells: MT-4 ; strain or isolate: NL4-3 ; value: <0.0156 µM
COc1ccc2c(c1)N(C(=O)OC(C)C)[C@@H](CSC)C(=S)N2 ; cells: PBL ; mutations: RT-A98G L100I ; strain or isolate: 19/34-TI TIBO-resistant (RT A98G L100I) ; value: 0.05 µM
CC1(C)CC[C@]2(C(=O)O)CC[C@]3(C)C(=CC[C@@H]4[C@@]5(C)CC[C@H](O)C(C)(C)[C@@H]5CC[C@]43C)[C@@H]2C1 ; cells: H9 ; strain or isolate: IIIB ; value: 0.5 µg/mL
Nc1ccn([C@H]2CC[C@@H](CO)O2)c(=O)n1 ; cells: PBL ; strain or isolate: IIIB ; value: 0.08 µM
CC(C)(C)NC(=O)[C@@H]1C[C@H](F)CN1C(=O)[C@@H](O)[C@H](Cc1ccccc1)NC(=O)[C@H](CC(N)=O)NC(=O)OCc1ccccc1 ; cells: CEM ; strain or isolate: IIIB ; value: <5 µM
Cc1cn([C@H]2C[C@H](N=[N+]=[N-])[C@@H](CO)O2)c(=O)[nH]c1=O ; cells: CEM + CEM-SS ; value: 0.005 µM
Nc1ccn([C@H]2CC[C@@H](CO)O2)c(=O)n1 ; cells: PBMC ; strain or isolate: IIIB ; value: 0.01 µM
Cc1ccccc1Cc1cccc(C(=O)CC(=O)C(=O)O)c1 ; value: 0.2 µM
Cc1ccncc1-c1ccc(C[C@H](C[C@H](O)CN2CCN(C(C)(C)c3ncc(-c4ccc(Cl)cc4)s3)C[C@H]2C(=O)NCC(F)(F)F)C(=O)N[C@H]2c3ccccc3OC[C@H]2O)o1 ; cells: MT-4 ; mutations: PR-M46I L63P V82T I84V ; strain or isolate: 4X (PR M46I L63P V82T I84V) ; value: <0.0313 µM
Cc1ccc(S(=O)(=O)c2c(C(=O)NNCCO)[nH]c3ccc(Cl)cc23)c(C)c1 ; cells: Macrophage + Macrophages ; strain or isolate: BAL R5 ; value: 12 µM
CC[C@H](C)C(=O)O[C@H]1C[C@@H](C)C=C2C=C[C@H](C)[C@H](CC[C@@H]3C[C@@H](O)CC(=O)O3)[C@H]21 ; cells: PBMC ; strain or isolate: 92US151 R5X4 clinical variant ; value: <50 µM
O=C(O)P(=O)(O)O ; cells: PBMC ; strain or isolate: 9632 CLADE B CLADE B ; value: 7.82 µM
COC(=O)[C@H](Cc1ccccc1)NP(=O)(O)OC[C@H]1O[C@@H](n2cnc3cnccc32)[C@H](O)[C@@H]1O ; cells: PBL ; strain or isolate: A012 POST-AZT ; value: >10 µM
C[C@@H](NC(=S)Nc1ccc(Br)cn1)c1cccc2ccccc12 ; cells: PBMC ; mutations: RT-L74V V106A T215Y ; strain or isolate: RT multidrug-resistant (L74V V106A T215Y) ; value: 0.001 µM
CC(C)(C)NC(=O)[C@@H]1CC(=O)CN1C(=O)[C@@H](O)[C@H](Cc1ccccc1)NC(=O)[C@H](CC(N)=O)NC(=O)OCc1ccccc1 ; cells: CEM ; strain or isolate: IIIB ; value: <1.5 µM
O=c1[nH]cnc2c1ncn2[C@H]1CC[C@@H](CO)O1 ; cells: MT-2 ; mutations: RT-K65R ; strain or isolate: LAI ; value: 14.2 µM
Cc1cn([C@H]2C[C@H](N=[N+]=[N-])[C@@H](CO)O2)c(=O)[nH]c1=O ; cells: MT-2 ; mutations: RT-K103N Y181C ; strain or isolate: UC781-resistant (RT K103N Y181C) A17 ; value: 0.03309 µg/mL
Nc1nc2c(ncn2[C@H]2CO[C@@H](CO)O2)c(=O)[nH]1 ; cells: MT-2 ; mutations: RT-K65R ; strain or isolate: LAI ; value: 2.41 µM
COc1ccc(CN[C@@H](C(=O)N[C@H]2c3ccccc3C[C@H]2O)[C@H](O)[C@H](Cc2ccccc2)NC(=O)[C@@H](NC(=O)OCc2ccccc2)C(C)(C)C)cc1 ; cells: Primary T4 cells + T4 ; strain or isolate: A018C ; value: 0.04 µM
CC1(C)CC[C@]2(C(=O)O)CC[C@]3(C)C(=CCC4[C@@]5(C)CCC(=O)C(C)(C)C5CC[C@]43C)C2C1 ; cells: H9 ; strain or isolate: IIIB ; value: 0.11 µg/mL
Cc1csc(NC(=S)N[C@H](C)c2cccc3ccccc23)n1 ; cells: PBMC ; mutations: RT-L74V V106A T215Y ; strain or isolate: RT multidrug-resistant (L74V V106A T215Y) ; value: 0.021 µM
COc1cccc2cc(C(=O)N[C@@H](CC(N)=O)C(=O)N[C@@H](Cc3ccccc3)[C@H](O)C(=O)N3C[C@@H](Cl)C[C@H]3C(=O)NC(C)(C)C)oc12 ; cells: MOLT-4/HIV-1(IIIB) + MOLT-4 ; strain or isolate: IIIB ; value: <0.58 µM
CC(C)c1nc(CN(C)C(=O)N[C@H](C(=O)N[C@@H](Cc2ccccc2)C[C@H](O)[C@H](Cc2ccccc2)NC(=O)OCc2cncs2)C(C)C)cs1 ; cells: PBL ; strain or isolate: BaL ; value: 0.029 µM
CC(C)(C)NC(=O)[C@@H]1C[C@@H]2CCCC[C@@H]2CN1C[C@@H](O)[C@H](Cc1ccccc1)NC(=O)[C@H](CC(N)=O)NC(=O)c1ccc2ccccc2n1 ; cells: JM ; strain or isolate: GBB ; value: <0.001 µg/mL
Nc1ccn([C@H]2CC[C@@H](CO)O2)c(=O)n1 ; cells: MT-2 ; strain or isolate: HXB2D ; value: 0.41 µM
O=C1N(Cc2ccc(CO)cc2)[C@H](Cc2ccccc2)[C@H](O)[C@@H](O)[C@@H](Cc2ccccc2)N1Cc1ccc(CO)cc1 ; cells: PBMC ; strain or isolate: A018C POST AZT ; value: 0.13 µM
Cc1cn([C@H]2C[C@H](N=[N+]=[N-])[C@@H](CO)O2)c(=O)[nH]c1=O ; cells: MT-2 ; mutations: RT-K65R ; strain or isolate: LAI ; value: 0.01 µM
NC(=O)NO ; cells: PBMC ; strain or isolate: IIIB ; value: >25 µM
Cc1ccnc2c1NC(=O)c1cccnc1N2C1CC1 ; cells: PBMC ; mutations: RT-Y181C ; strain or isolate: A17 ; value: >1 µM
Nc1nc(NC2CC2)c2ncn([C@H]3C=C[C@@H](CO)C3)c2n1 ; cells: PBMC ; strain or isolate: WEJO ; value: 0.06 µM
O=c1[nH]cnc2c1ncn2[C@H]1CC[C@@H](CO)O1 ; cells: MT-2 ; mutations: RT-L214F ; strain or isolate: L214F(RT-L214F) ; value: 1.2 µM
O=C1N(Cc2ccc(CO)cc2)[C@H](Cc2ccccc2)[C@H](O)[C@@H](O)[C@@H](Cc2ccccc2)N1Cc1ccc(CO)cc1 ; cells: PBMC ; strain or isolate: IIIB ; value: 0.018 µM
O=C(N[C@H]1c2ccccc2OC[C@H]1O)[C@H](Cc1cc2cnccc2s1)C[C@H](O)CN1CCN(Cc2ccc(-c3ccc(Cl)cc3)o2)C[C@H]1C(=O)NCC(F)(F)F ; cells: MT-4 ; strain or isolate: NL4-3 ; value: <0.0156 µM
Cn1cc(C(=O)N[C@@H](CC(N)=O)C(=O)N[C@@H](Cc2ccccc2)[C@H](O)C(=O)N2C[C@@H](Cl)C[C@H]2C(=O)NC(C)(C)C)c2ccccc21 ; cells: MOLT-4/HIV-1(IIIB) + MOLT-4 ; strain or isolate: IIIB ; value: <2.1 µM
COc1cc(C[C@H](C)[C@H](C)Cc2ccc(O)c(O)c2)ccc1O ; cells: PBMC ; strain or isolate: IIIB ; value: 0.8 µg/mL
Cc1cccc(NC(=S)N[C@H](C)c2cccc3ccccc23)n1 ; cells: PBMC ; strain or isolate: IIIB ; value: 0.004 µM

A second listing of 4 rows from above:

SMILES | cells | mutations | strain or isolate | value
O[C@H]1[C@H](O)[C@@H](O)CN2CC[C@H](O)[C@H]12 | JM |  | GBB | 1 µg/mL
CC(C)(C)OC(=O)N[C@@H](Cc1ccccc1)[C@H](O)CNC[C@@H](O)[C@H](Cc1ccccc1)NC(=O)C(C)(O)C(C)(C)C | PBMC |  | A018A | 0.21 µM
CC(C)[C@H](NC(=O)N(C)Cc1ccccn1)C(=O)N[C@@H](Cc1ccccc1)[C@H](O)[C@H](O)[C@H](Cc1ccccc1)NC(=O)[C@@H](NC(=O)N(C)Cc1ccccn1)C(C)C | MT-4 | PR-R8K | NL4-3 | 4 µM
COc1ccc2c(c1)N(C(=O)OC(C)C)[C@@H](CSC)C(=S)N2 | PBL | RT-A98G L100I | 19/34-TI TIBO-resistant (RT A98G L100I) | 0.05 µM